Test results from patent US6548552B1 (priority 1997, dated 2003).

Test system: TSST-1 production by S. aureus
Details: each agent at the concentration of b78: ascorbic acid 0.06%, propyl gallate 0.1%, delta-tocopherol 2.0%, cysteine 0.1%, N-acetyl-cysteine 0.2%, thiodipropionic acid 0.02%, bisulfites 0.05%, caffeine 0.025%, glutathione 0.2%

SMILES	effect on bacterial toxin production (in words)
N[C@@H](CCC(=O)N[C@@H](CS)C(=O)NCC(=O)O)C(=O)O	reduced toxin production
CCCOC(=O)c1cc(O)c(O)c(O)c1 [Propylgallate, propyl gallate]	reduced toxin production
